The results in this text go back to ChEMBL document CHEMBL4303087, “Broad anti-coronaviral activity of FDA approved drugs against SARS-CoV-2 in vitro and SARS-CoV in vivo” (2020).

This assay has as its system SARS-CoV. The assay can be described thus: Reduction of weight loss in SARS-CoV (MA15) infected mice after 4 days. To be noted: strain BALB/c.

As for `CN(C)CCCN1c2ccccc2Sc2ccc(Cl)cc21.Cl` [CHLORPROMAZINE HYDROCHLORIDE], the Weight loss was found to be 14% (dose 0 ug), 10% (dose 20 ug), 5% (dose 100 ug) and 5% (dose 200 ug).
